Patent publication US6906198B1, “Antipicornaviral compounds, their preparation and use” (Agouron Pharmaceuticals, Inc., priority 1998, dated 2005)

How the values were obtained:
[1] = system: enterovirus type 70 (EV 70); experiment: Anti-enteroviral cell culture assay (XTT), EV 70; format: cell-based; conditions: therapeutic index CC50/EC50, EV-70
Method: (§1) Anti-Echoviral and -Enteroviral Cell Culture Assays
(§2) Echovirus type 11 (EV 11) and enterovirus type 70 (EV 70) were purchased from ATCC (Rockville, Md.). Virus stocks were propagated and antiviral assays were performed in MRC-5 cells (ATCC). Cells were grown in minimal essential medium with 10% fetal bovine serum (Life Technologies, Gaithersburg, Md.).
(§3) The ability of compounds to protect cells against either EV 11 or EV 70 infection was measured by the XTT dye reduction method (Weislow et al., J. Natl. Cancer Inst. 1989, vol. 81, 577-586). MRC-5 cells were infected with EV 11 or EV 70 at an m.o.i. of 0.003 or 0.004, respectively, or mock-infected with medium only. Infected or uninfected cells were added at 1×10^4 cells per well and incubated with appropriate concentrations of compound. Four days later, XTT/PMS was added to test plates, and the amount of formazan produced was quantified spectrophotometrically at 450/650 nm. The EC50 was calculated as the concentration of compound that increased the formazan production in compound-treated, virus-infected cells to 50% of that produced by compound-free, uninfected cells. The 50% cytotoxic dose (CC50) was calculated as the concentration of compound that decreased formazan production in compound-treated, uninfected cells to 50% of that produced in compound-free, uninfected cells. The therapeutic index (TI) was calculated by dividing the CC50 by the EC50.
(§4) The compounds were tested against control compounds Pirodavir (obtained from Janssen Pharmaceuticals) and Pleconaril (prepared according to Diana et al., J. Med. Chem. 1995, vol. 38, 1355). Antiviral data obtained for the test compounds against strain EV 11 and EV 70 are shown below in Table 5.

[2] = system: HRV serotype 3; experiment: Antirhinoviral H1-HeLa cell culture assay (XTT), HRV-3; format: cell-based, human rhinovirus; conditions: therapeutic index CC50/EC50, HRV (3)
Method: (§5) Antirhinoviral H1-HeLa Cell Culture Assay
(§6) In this cell protection assay, the ability of compounds to protect cells against HRV infection was measured by the XTT dye reduction method, which is described in Weislow et al., J. Natl. Cancer Inst. 1989, vol. 81, 577-586.
(§7) H1-HeLa cells were infected with HRV-14 at a multiplicity of infection (m.o.i.) of 0.13 (virus particles/cell) or mock-infected with medium only. Infected or mock-infected cells were resuspended at 8×10^5 cells per mL, and incubated with appropriate concentrations of the compounds to be tested. Two days later, XTT/PMS was added to test plates and the amount of formazan produced was quantified spectrophotometrically at 450/650 nm. The EC50 value was calculated as the concentration of compound that increased the percentage of formazan production in compound-treated, virus-infected cells to 50% of that produced by compound-free, mock-infected cells. The 50% cytotoxic dose (CC50) was calculated as the concentration of compound that decreased the percentage of formazan produced in compound-treated, mock-infected cells to 50% of that produced by compound-free, mock-infected cells. The therapeutic index (TI) was calculated by dividing the CC50 value by the EC50 value.
(§8) All strains of human rhinovirus (HRV) for use in this assay were purchased from American Type Culture Collection (ATCC), except for HRV serotype-14 (produced from the infectious cDNA clone constructed by Dr. Robert Rueckert, Institute for Molecular Virology, University of Wisconsin, Madison, Wis.). HRV stocks were propagated and viral assays were performed in H1-HeLa cells (ATCC). Cells were grown in minimal essential medium with 10% fetal bovine serum, available from Life Technologies (Gaithersburg, Md.).
(§9) The compounds were tested against control compounds WIN 51711, WIN 52084, and WIN 54954 (obtained from Sterling-Winthrop Pharmaceuticals), Pirodavir (obtained from Janssen Pharmaceuticals), and Pleconaril (prepared according to the method described in Diana et al., J. Med. Chem 1995, vol. 38, 1355). Antiviral data obtained for the test compounds are shown in Tables 1 and 3, where all data are for HRV serotype-14 unless otherwise noted in parentheses.

[3] = system: Echovirus type 11 (EV 11); experiment: Anti-echoviral cell culture assay (XTT), EV 11; format: cell-based; conditions: therapeutic index CC50/EC50, EV-11
Method: as §1, §2, §3, §4

[4] = system: HRV serotype 39; experiment: Antirhinoviral H1-HeLa cell culture assay (XTT), HRV-39; format: cell-based, human rhinovirus; conditions: therapeutic index CC50/EC50, HRV (39)
Method: as §5, §6, §7, §8, §9

[5] = system: HRV serotype 12; experiment: Antirhinoviral H1-HeLa cell culture assay (XTT), HRV-12; format: cell-based, human rhinovirus; conditions: therapeutic index CC50/EC50, HRV (12)
Method: as §5, §6, §7, §8, §9

[6] = system: Coxsackievirus type A-21 (CAV-21); experiment: Anticoxsackieviral cell culture assay (XTT), CAV-21; format: cell-based; conditions: therapeutic index CC50/EC50, CAV-21
Method: (§10) Anticoxsackieviral Cell Culture Assay
(§11) Coxsackievirus types A-21 (CAV-21) and B3 (CVB-3) were purchased from American Type Culture Collection (ATCC, Rockville, Md.). Virus stocks were propagated and antiviral assays were performed in H1-HeLa cells (ATCC). Cells were grown in minimal essential medium with 10% fetal bovine serum (Life Technologies, Gaithersburg, Md.).
(§12) The ability of compounds to protect cells against either CAV-21 or CVB-3 infection was measured by the XTT dye reduction method. This method is described in Weislow et al., J. Natl. Cancer Inst. 1989, vol. 81, 577-586. H1-HeLa cells were infected with CAV-21 or CVB-3 at a multiplicity of infection (m.o.i.) of 0.025 or 0.075, respectively, or mock-infected with medium only. H1-HeLa cells were plated at 4×10^4 cells per well in a 96-well plate and incubated with appropriate concentrations of the test compound. One day (CVB-3) or two days (CAV-21) later, XTT/PMS was added to test plates and the amount of formazan produced was quantified spectrophotometrically at 450/650 nm. The EC50 was calculated as the concentration of compound that increased the formazan production in compound-treated, virus-infected cells to 50% of that produced by compound-free, uninfected cells. The 50% cytotoxic dose (CC50) was calculated as the concentration of compound that decreased formazan production in compound-treated, uninfected cells to 50% of that produced in compound-free, uninfected cells. The therapeutic index (TI) was calculated by dividing the CC50 by the EC50.
The compounds were tested against control compounds WIN 54954 (obtained from Sterling-Winthrop Pharmaceuticals), Pirodavir (obtained from Janssen Pharmaceuticals), and Pleconaril (prepared according to Diana et al., J. Med. Chem. 1995, 38, 1355).

[7] = system: HRV serotype 17; experiment: Antirhinoviral H1-HeLa cell culture assay (XTT), HRV-17; format: cell-based, human rhinovirus; conditions: therapeutic index CC50/EC50, HRV (17)
Method: as §5, §6, §7, §8, §9

[8] = system: HRV serotype 1A; experiment: Antirhinoviral H1-HeLa cell culture assay (XTT), HRV-1A; format: cell-based, human rhinovirus; conditions: therapeutic index CC50/EC50, HRV (1A)
Method: as §5, §6, §7, §8, §9

[9] = system: HRV serotype 89; experiment: Antirhinoviral H1-HeLa cell culture assay (XTT), HRV-89; format: cell-based, human rhinovirus; conditions: therapeutic index CC50/EC50, HRV (89)
Method: as §5, §6, §7, §8, §9

[10] = system: Coxsackievirus type B3 (CVB-3); experiment: Anticoxsackieviral cell culture assay (XTT), CVB-3; format: cell-based; conditions: therapeutic index CC50/EC50, CVB-3
Method: as §10, §11
as §12, with “The 50% cytotoxic dose (CC50) was calculated as the concentration of compound that decreased formazan production in compound-treated, uninfected cells to 50% of that produced in compound-free, uninfected cells.” left out, “EC50. […]” for “EC50.”

[11] = system: HRV serotype 13; experiment: Antirhinoviral H1-HeLa cell culture assay (XTT), HRV-13; format: cell-based, human rhinovirus; conditions: therapeutic index CC50/EC50, HRV (13)
Method: as §5, §6, §7, §8, §9

[12] = system: HRV serotype 30; experiment: Antirhinoviral H1-HeLa cell culture assay (XTT), HRV-30; format: cell-based, human rhinovirus; conditions: therapeutic index CC50/EC50, HRV (30)
Method: as §5, §6, §7, §8, §9

[13] = system: HRV-14; experiment: Antirhinoviral H1-HeLa cell culture assay (XTT), HRV-14; format: cell-based, human rhinovirus; conditions: therapeutic index CC50/EC50, HRV serotype-14
Method: as §5, §6, §7, §8, §9

[14] = system: HRV serotype 2; experiment: Antirhinoviral H1-HeLa cell culture assay (XTT), HRV-2; format: cell-based, human rhinovirus; conditions: therapeutic index CC50/EC50, HRV (2)
Method: as §5, §6, §7, §8, §9

[15] = system: HRV serotype 16; experiment: Antirhinoviral H1-HeLa cell culture assay (XTT), HRV-16; format: cell-based, human rhinovirus; conditions: therapeutic index CC50/EC50, HRV (16)
Method: as §5, §6, §7, §8, §9

[16] = system: HRV serotype 38; experiment: Antirhinoviral H1-HeLa cell culture assay (XTT), HRV-38; format: cell-based, human rhinovirus; conditions: therapeutic index CC50/EC50, HRV (38)
Method: as §5, §6, §7, §8
(§13) The compounds were tested against control compounds WIN 51711, WIN 52084, and WIN 54954 (obtained from Sterling-Winthrop Pharmaceuticals), Pirodavir (obtained from Janssen Pharmaceuticals), and Pleconaril (prepared according to the method described in Diana et al., J. Med. Chem 1995, vol. 38, 1355). […]

[17] = system: HRV serotype 87; experiment: Antirhinoviral H1-HeLa cell culture assay (XTT), HRV-87; format: cell-based, human rhinovirus; conditions: therapeutic index CC50/EC50, HRV (87)
Method: as §5, §6, §7, §8, §13

[18] = system: HRV serotype 25; experiment: Antirhinoviral H1-HeLa cell culture assay (XTT), HRV-25; format: cell-based, human rhinovirus; conditions: therapeutic index CC50/EC50, HRV (25)
Method: as §5, §6, §7, §8, §13

[19] = system: HRV serotype 9; experiment: Antirhinoviral H1-HeLa cell culture assay (XTT), HRV-9; format: cell-based, human rhinovirus; conditions: therapeutic index CC50/EC50, HRV (9)
Method: as §5, §6, §7, §8, §13

[20] = system: HRV serotype 10; experiment: Antirhinoviral H1-HeLa cell culture assay (XTT), HRV-10; format: cell-based, human rhinovirus; conditions: therapeutic index CC50/EC50, HRV (10)
Method: as §5, §6, §7, §8, §9

| SMILES | TI [1] | TI [2] | TI [3] | TI [4] | TI [5] | TI [6] | TI [7] | TI [8] | TI [9] | TI [10] | TI [11] | TI [12] | TI [13] | TI [14] | TI [15] | TI [16] | TI [17] | TI [18] | TI [19] | TI [20] |
| --- | --- | --- | --- | --- | --- | --- | --- | --- | --- | --- | --- | --- | --- | --- | --- | --- | --- | --- | --- | --- |
| CCOC(=O)/C=C/[C@H](C[C@@H]1CCNC1=O)NC(=O)[C@H](Cc1ccc(F)cc1)NC(=O)[C@@H](NC(=O)c1cc(C)on1)C(C)C [(A-5), Ethyl-3-{(5′-Methylisoxazole-3′-carbonyl)-L-Val-L-(4-F-Phe)-L-((S)-Pyrrol-Ala)}-E-Propenoate] | >250 | >200 | >125 | >500 | >166 | >43 | >500 | >333 | >500 | >10 | >500 | >166 | – | – | – | – | – | – | – | – |
| Cc1cc(CCCOc2c(C)cc(-c3noc(C(F)(F)F)n3)cc2C)on1 [Pleconaril, reference compound] | – | – | >62 | – | – | >107 | – | – | – | – | – | – | >1000 | – | – | – | – | – | – | – |
| CCOC(=O)/C=C/[C@H](C[C@@H]1CCNC1=O)NC(=O)[C@H](Cc1ccc(F)cc1)OC(=O)[C@@H](NC(=O)c1cc(C)on1)C(C)C [(C-2), Ethyl-3-{(5′-Methylisoxazole-3′-carbonyl)-L-Val-O-L-(4-F-Phe)-L-((S)-Pyrrol-Ala)}-E-Propenoate] | – | >500 | – | >1000 | >250 | – | >1428 | >1000 | >2500 | – | >1428 | >333 | >5000 | >2500 | >1000 | >200 | >500 | >142 | >1000 | >500 |
| CCOC(=O)/C=C/[C@H](C[C@@H]1CCNC1=O)NC(=O)[C@H](Cc1ccc(F)cc1)NC(=O)[C@@H](NC(=O)c1cc(C)on1)C(C)(C)C [(A-7), Ethyl-3-{(5′-Methylisoxazole-3′-carbonyl)-L-α-(t-Butyl-Gly)-L-(4-F-Phe)-L-((S)-Pyrrol-Ala)}-E-Propenoate] | – | >500 | – | >500 | >143 | – | >500 | >333 | >500 | – | >333 | >111 | >2500 | >500 | >250 | >58 | >16 | >50 | >250 | >166 |
| CCOC(=O)c1ccc(OCCC2CCN(c3ccc(C)nn3)CC2)cc1 [Pirodavir, reference compound] | >167 | – | >3 | – | – | – | – | – | – | – | – | – | >300 | – | – | – | – | – | – | – |
